In this data set the test system is HaCaTa cells. Nature of the data set: CellTiter 96 AQueous One cell proliferation assay of chemotherapy drug-treated keratinocytes with or without antioxidant and cooling. The following applies: extremely high doses, 2 h treatment, read 72 h later (FIG. 5 for 4-OH-CP, FIG. 6 for doxorubicin).

Data on one substance can be found in patent US11077088B2, “Composition and apparatus for treatment of chemotherapy induced alopecia” (Paxman Coolers Ltd, priority 2016, dated 2021).

With 4-hydroxycyclophosphamide, the “cytotoxicity of the drug in keratinocytes” value was “total cytotoxicity (complete death)”.
